Pooled drug test results. Numbers come from NIAID ChemDB, via PubChem.

Shared fields: tests in culture; organism: Human cytomegalovirus; measure: EC50

Lines come from different laboratories, so protocols vary.

SMILES | strain | read by | result
CC/C=C\Cn1c(=O)sc2c(=O)[nH]c(N)nc21 | 48041 (DHPG-R) | plaque count | 0.16 µM
COc1cccc(N2CCN(C3=Nc4c(F)cccc4[C@H](CC(=O)O)N3c3cc(C(F)(F)F)ccc3OC)CC2)c1 | Clinical isolate 9 | plaque count | 0.0008 µM
Nc1nc2c(ncn2COC(CO)CO)c(=O)[nH]1 | VR6189 (ganciclovir-susceptible) | plaque count | 1.8 µM
Cc1nc(NC2Cc3ccccc3C2)nc(-n2ccnc2C)c1[N+](=O)[O-] | - | - | 0.6 µM
CN(C)c1cccc2c(S(=O)(=O)Nc3ccc(NC(=O)C(C)(C)CO)cc3)cccc12 | Isolate HE | plaque count | 0.89 µM
CC(=O)Cn1ccc(=O)n(Cc2cc(C)cc(C)c2)c1=O | AD169 | - | >570 µM
Cc1nc(N2CCCC(C)C2)nc(-n2ccnc2)c1[N+](=O)[O-] | - | - | 0.23 µM
Nc1nc2c(ncn2[C@H]2C=C[C@@H](CO)[C@H](O)C2)c(=O)[nH]1 | U 9070 | - | 0.4 µg/mL
CN(C)c1cccc2c(S(=O)(=O)Nc3ccc(NC(=O)C(C)(C)CO)cc3)cccc12 | DAVIS | plaque count | 0.52 µM
Cc1cc(C)cc(Cn2c(=O)ccn(Cc3ccc(C(C)(C)C)cc3)c2=O)c1 | AD169 | - | >130 µM
O=C(NCc1ccc(Cl)cc1)c1c[nH]c2c(F)cccc2c1=O | NEW | plaque count | 7.2 µM
Cc1nc(NC2CCc3cc(F)c(F)cc32)nc(-n2ccnc2C)c1[N+](=O)[O-] | - | - | 0.15 µM
O=C(NCc1ccc(Cl)cc1)c1c[nH]c2ccc(C#CCO)cc2c1=O | DAVIS | virus yield | <4.7 µM
C=CCn1ccc(=S)n(Cc2cc(C)cc(C)c2)c1=O | AD169 | - | 28 µM
O=C(NCc1ccc(Cl)cc1)c1c[nH]c2c(F)cccc2c1=O | DAVIS | virus yield | <50 µM
Cc1nc(NC2CCc3ccccc32)nc(-n2ccnc2C)c1[N+](=O)[O-] | - | - | 0.02 µM
Cc1cc(C)cc(Cn2c(=O)cc(Cl)n(Cc3ccccc3)c2=O)c1 | AD169 | - | 96 µM
Nc1nc2c(ncn2COC(CO)CO)c(=O)[nH]1 | TOWNE | virus yield | <3.1 µM

Again, the opening 2 rows:

SMILES	strain	read by	result
CC/C=C\Cn1c(=O)sc2c(=O)[nH]c(N)nc21	48041 (DHPG-R)	plaque count	0.16 µM
COc1cccc(N2CCN(C3=Nc4c(F)cccc4[C@H](CC(=O)O)N3c3cc(C(F)(F)F)ccc3OC)CC2)c1	Clinical isolate 9	plaque count	0.0008 µM

An empty or dashed field is not shown. ECn is the concentration giving n% inhibition of infection, replication or growth.